From paper PMC6728359, “Crystal structure and chemical inhibition of essential schistosome host-interactive virulence factor carbonic anhydrase SmCA” (Communications Biology, 2019)

Protein sequences, listed by entry. Tags and fused reporters are not part of them. Residues count along the entry.
UniProt A0A3Q0KSG2, 21-298 limits assumed: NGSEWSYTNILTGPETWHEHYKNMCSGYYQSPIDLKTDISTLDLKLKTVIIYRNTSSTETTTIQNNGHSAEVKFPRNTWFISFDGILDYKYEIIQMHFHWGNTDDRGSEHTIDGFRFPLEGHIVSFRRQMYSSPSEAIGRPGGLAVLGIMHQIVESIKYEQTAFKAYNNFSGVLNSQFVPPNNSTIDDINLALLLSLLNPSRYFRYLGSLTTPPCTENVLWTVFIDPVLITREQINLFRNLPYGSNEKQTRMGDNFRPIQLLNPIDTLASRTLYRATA

Molecular target: rSmCA (recombinant SmCA, α-carbonic anhydrase) (Schistosoma mansoni, UniProt A0A3Q0KSG2)
Experiment: stopped-flow CO2 hydrase assay, inhibition of rSmCA
Assay type: biochemical
Settings: ratio of Ki values, both human isoforms

O=[As](O)(O)c1ccccc1 [Ph-AsO 3 H 2, phenylarsonic acid]
higher affinity for SmCA versus human isoforms hCA I or hCA II: > 1000 fold
